Assay results: patent US20110002859A1, “CHEWING GUM CONTAINING EUCALYPTUS EXTRACT” (LOTTE CO., LTD., priority 2008, published 2011)

Tested on: periodontopathic bacteria
Test: Minimum compounding concentration for antibacterial activity in saliva
Settings: from Tables 2 to 4, antibacterial activity in saliva

Compared with `CC(C)C[C@@H](c1c(O)c(C=O)c(O)c(C=O)c1O)[C@@]1(C)CC[C@@H]2[C@@H]1[C@H]1[C@@H](CC[C@@]2(C)O)C1(C)C` [Macrocarpal A, macrocarpal A], `CC(C)C[C@H](c1c(O)c(C=O)c(O)c(C=O)c1O)[C@@]1(C)CC[C@@H]2[C@@H]1[C@H]1[C@@H](CC[C@@]2(C)O)C1(C)C` [Macrocarpal B, macrocarpal B] is higher in “appropriate minimum compounding concentration in chewing gum” value: 0.001 % by weight for the first, 0.003 % by weight for the second.

In the case of `C=C1CC[C@@H]2[C@H]([C@H]3[C@H]1CC[C@]3(C)[C@@H](CC(C)C)c1c(O)c(C=O)c(O)c(C=O)c1O)C2(C)C` [Macrocarpal C, macrocarpal C], the “appropriate minimum compounding concentration in chewing gum” value is reported as 0.0015 % by weight.
